Compound potency records, mixed from different reports. Data source: NIAID ChemDB in PubChem.

Rows are shuffled and stem from different studies. MIC bound: limit read from a one-dose screen. ICn is the concentration giving n% inhibition. Blank or dashed fields: not listed here. Inhibition is in % at the dose shown (toxicity tests: loss of growth or viability).

SMILES,method,strain,dose,protein,endpoint,agent,test,result
Fc1ccc(N2CCCCC2)c(NC(=S)c2ccncc2)c1,kinase activity,,10 µM,PKCdelta,inhibition,,host protein,9%
COC(=O)[C@@H]1C=CC(O[C@@H]2O[C@H](COC(C)=O)[C@@H](OC(C)=O)[C@H](OC(C)=O)[C@H]2OC(C)=O)n2c(=O)n(-c3ccccc3)c(=O)n21,resazurin,H37Rv,,,MIC bound,Mycobacterium tuberculosis,culture,>6.25 µg/mL
O=C1NS(=O)(=O)c2ccccc21,,H37Rv,,,MIC,Mycobacterium tuberculosis,culture,>100 µg/mL
O=C1CN(CCN2CC(=O)NC(=O)C2)CC(=O)N1,BACTEC,H37Rv,12.5 µg/mL,,inhibition,Mycobacterium tuberculosis,culture,-13%
CCCCN(CCCC)Cc1cc(CN(CCCC)CCCC)c(O)c(CN(CCCC)CCCC)c1,,H37Rv,,,MIC,Mycobacterium tuberculosis,culture,>100 µg/mL
O=C1NC(=O)N(/N=C/c2ccc(-c3ccc(Cl)c(Cl)c3)o2)C1O,BACTEC,H37Rv,,,MIC bound,Mycobacterium tuberculosis,culture,>12.5 µg/mL
COc1ccc(N2CCN(c3cncc(-c4ccccc4C)n3)CC2)cc1OC,,,10 µM,UL97 kinase,inhibition,Cytomegalovirus,target,>15%
O=S(=O)(O)CC(O)CN1CCN(CCO)CC1,BACTEC,H37Rv,,,MIC bound,Mycobacterium tuberculosis,culture,>12.8 µg/mL
Nc1ccc([N+](=O)[O-])cc1S(=O)(=O)O,,H37Rv,,,MIC,Mycobacterium tuberculosis,culture,>100 µg/mL
Fc1cc(-c2cncc(N3CCN(c4ccccc4)CC3)n2)ccc1-c1ccccc1,,,10 µM,UL97 kinase,inhibition,Cytomegalovirus,target,>15%
ClCC[N+]12CC[N+](CCCl)(CC1)C2.O=S(=O)([O-])[O-],BACTEC,H37Rv,,,MIC bound,Mycobacterium tuberculosis,culture,>12.5 µg/mL
Cc1ccc(-c2cncc(N3CCN(c4cnccn4)CC3)n2)cc1,,,1 µM,UL97 kinase,inhibition,Cytomegalovirus,target,<50%
Cc1ccc(-c2ccc3ccc(C(F)(F)F)cc3n2)cc1,,H37Rv,,,MIC,Mycobacterium tuberculosis,culture,>100 µg/mL
Clc1cccc(N2CCN(c3cncc(-c4ccc5ccccc5c4)n3)CC2)c1,,,10 µM,UL97 kinase,inhibition,Cytomegalovirus,target,>15%
CCOC(=O)/C(=C/Nc1ccc(C)c(C)c1)C(=O)Nc1ccc(C)c(C)c1,,H37Rv,,,MIC,Mycobacterium tuberculosis,culture,>100 µg/mL
CCOC(=O)NC(Nc1ccc(S(=O)(=O)Nc2ncccn2)cc1)(C(=O)OCC)C(F)(F)F,resazurin,H37Rv,,,MIC bound,Mycobacterium tuberculosis,culture,>6.25 µg/mL
O=[N+]([O-])c1ccc2c(c1)S(=O)(=O)c1ccccc1O2,,H37Rv,,,MIC,Mycobacterium tuberculosis,culture,100 µg/mL
CC(=O)c1cccc(-c2cncc(N3CCN(c4ccccn4)CC3)n2)c1,,,1 µM,UL97 kinase,inhibition,Cytomegalovirus,target,<50%
Nc1cccc2c(=O)[nH][nH]c(=O)c12,,H37Rv,,,MIC,Mycobacterium tuberculosis,culture,>100 µg/mL
CCOC(=O)C1=NN(c2ccccc2)C(=O)C1N=Nc1ccc(S(=O)(=O)Nc2ccccn2)cc1,BACTEC,H37Rv,,,MIC,Mycobacterium tuberculosis,culture,≥12.5 µg/mL
COc1cccc(-c2cncc(N3CCN(c4ccccn4)CC3)n2)c1,,,,UL97 kinase,IC50,Cytomegalovirus,target,<10 µM

A second listing of 3 rows from above:

SMILES,method,strain,dose,protein,endpoint,agent,test,result
Clc1cccc(N2CCN(c3cncc(-c4ccc5ccccc5c4)n3)CC2)c1,,,10 µM,UL97 kinase,inhibition,Cytomegalovirus,target,>15%
CC(=O)c1cccc(-c2cncc(N3CCN(c4ccccn4)CC3)n2)c1,,,1 µM,UL97 kinase,inhibition,Cytomegalovirus,target,<50%
COc1ccc(N2CCN(c3cncc(-c4ccccc4C)n3)CC2)cc1OC,,,10 µM,UL97 kinase,inhibition,Cytomegalovirus,target,>15%